Measured values taken from paper PMC5505994 (Scientific Reports, 2017).

B2: MbAhpC triple mutant D22N/K25Q/D27N (enzyme)
chain: MPLLTIGDQFPAYQLTALIGGNLSQVNAKQPGDYFTTITSDEHPGKWRVVFFWPKDFTFVCPTEIAAFSKLNDEFEDRDAQILGVSIDSEFAHFQWRAQHNDLKTLPFPMLSDIKRELSQAAGVLNADGVADRVTFIVDPNNEIQFVSATAGSVGRNVDEVLRVLDALQSDELCACNWRKGDPTLDAGELLKASA

Assays:
SEC = biological target: the molecule itself; experiment: SEC
dynamic light scattering = biological target: the molecule itself; experiment: dynamic light scattering
[1] = biological target: MbAhpC double mutant T5A/D8A (Mycobacterium bovis (BCG strain), UniProt P9WQB7 1-195, T5A | D8A); experiment: NMR titration
[2] = biological target: B2; experiment: NMR titration

B1: MbAhpC double mutant D22N/K25Q (enzyme)
chain: MPLLTIGDQFPAYQLTALIGGNLSQVDAKQPGDYFTTITSDEHPGKWRVVFFWPKDFTFVCPTEIAAFSKLNDEFEDRDAQILGVSIDSEFAHFQWRAQHNDLKTLPFPMLSDIKRELSQAAGVLNADGVADRVTFIVDPNNEIQFVSATAGSVGRNVDEVLRVLDALQSDELCACNWRKGDPTLDAGELLKASA
binding result (SEC): binds

B2
binding result (SEC): binds

B3: MbAhpC single mutant T5A (enzyme)
chain: MPLLAIGDQFPAYQLTALIGGDLSKVDAKQPGDYFTTITSDEHPGKWRVVFFWPKDFTFVCPTEIAAFSKLNDEFEDRDAQILGVSIDSEFAHFQWRAQHNDLKTLPFPMLSDIKRELSQAAGVLNADGVADRVTFIVDPNNEIQFVSATAGSVGRNVDEVLRVLDALQSDELCACNWRKGDPTLDAGELLKASA
binding result (dynamic light scattering): binds

B4: Mycobacterium bovis thioredoxin TrxC (natural protein)
chain: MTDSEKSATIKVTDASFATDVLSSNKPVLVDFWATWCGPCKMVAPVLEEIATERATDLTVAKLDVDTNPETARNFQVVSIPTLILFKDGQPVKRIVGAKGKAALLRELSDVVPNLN
modifications: 15N-labelled
binding result [1]: binds | binding result [2]: binds
